A mixed list of measured activities; the numbers were collected in NIAID ChemDB.

All rows: enzyme or target tests; organism: HIV-1; target: Protease; endpoint: Ki

Lines come from different laboratories, so protocols vary.

compound | strain or isolate | method | value
COC(=O)N[C@H](C(=O)NN(CCC[C@@]1(Cc2ccccc2)C(=O)N(C2c3ccccc3C[C@H]2O)C[C@H]1O)Cc1ccc(-c2cccnc2)cc1)C(C)(C)C |  | fluorescence | 0.0063 µM
O=C(N[C@@H](Cc1ccccc1)[C@H](O)CN1CC=CCCC12C(=O)Nc1ccccc12)O[C@H]1CO[C@H]2OCC[C@H]21 |  | HPLC | >1000 µM
COC(=O)N[C@H](C(=O)NN(CC[C@]1(Cc2ccccc2)C(=O)N(C2c3ccccc3C[C@H]2O)C[C@@H]1O)Cc1ccc(Br)cc1)C(C)(C)C |  | fluorescence | 0.0063 µM
COc1ccc(S(=O)(=O)N(CC2CCCC2)C[C@@H](O)[C@H](Cc2ccccc2)NC(=O)O[C@@H]2CCOC2)cc1 |  | HPLC | <0.0001 µM
CC(C)(C)c1cc2c(O)c(c1)Cc1cc(C(C)(C)C)cc3c1OCCOc1ccc4ccccc4c1C=NCCCCN=Cc1c(ccc4ccccc14)OCCOc1c(cc(C(C)(C)C)cc1Cc1cc(C(C)(C)C)cc(c1O)C3)C2 |  | FRET / fluorescence | 90 µM
CCS(=O)(=O)NCCCCC(C)(C)CN(C[C@@H](O)[C@H](Cc1ccccc1)NC(=O)O[C@H]1CO[C@H]2OCC[C@H]21)S(=O)(=O)c1ccc2c(c1)OCO2 |  | fluorescence | <0.001 µM
CC(C)[C@H](NC(=O)[C@H](Cc1ccccc1)C[C@H](O)[C@H](Cc1ccccc1)NC(=O)OC(C)(C)C)C(=O)N/C(N)=N/C(=O)OCc1ccccc1 |  | HPLC | 0.00028 µM
CC(C)(CCCNC(=O)C1CC1)CN(C[C@@H](O)[C@H](Cc1ccccc1)NC(=O)O[C@H]1CO[C@H]2OCC[C@H]21)S(=O)(=O)c1ccc2c(c1)OCO2 |  | fluorescence | <0.001 µM
CC[C@H](C)[C@H](NC(=O)[C@H](C(C)C)[C@@H](O)[C@H](O)[C@H](CC1CCCCC1)NC(=O)[C@H](Cc1cnc[nH]1)NC(=O)COc1ccccc1)C(=O)NCc1ccccn1 |  |  | 0.002 µM
COc1ccc(CCOC(=O)[C@H]2[C@H](O)[C@H](Cc3ccccc3)NC(=O)N2Cc2ccc(OC)cc2)cc1 | IIIB |  | >12.5 µM
COc1cc(Br)c(C(=O)N[C@@H](Cc2cccc(Oc3ccccc3)c2)[C@@H](O)CN(CCc2ccc(Cl)cc2Cl)C(=O)CCN2C(=O)c3ccccc3C2=O)cc1OC |  | fluorescence | 0.0007 µM
CC(C)CN(C[C@@H](O)[C@H](Cc1ccccc1)NC(=O)C[C@H]1C2CO[C@H]3OCC1C3C2)S(=O)(=O)c1ccc(N)cc1 | LAI | fluorescence | 0.00002 µM
O=C(N[C@@H](Cc1ccccc1)[C@H](O)[C@H](O)[C@H](CC1C=CC=CC1)NC(=O)c1ccccc1)c1ccccc1 |  | substrate cleavage | 0.04 µM
COc1ccc(S(=O)(=O)N(CC(C)C)C[C@@H](O)[C@H](Cc2ccccc2)NC(=O)O[C@H]2CCCOCC2)cc1 | LAI | FRET | 0.00081 µM
CCOC(=O)[C@H]1[C@H](O)[C@H](Cc2ccccc2)NC(=O)CN1Cc1ccc(OC)cc1 | IIIB |  | >12.5 µM
COc1ccc(S(=O)(=O)N(CC(C)C)C[C@@H](O)[C@H](Cc2ccccc2)NC(=O)C2CCOC3(CCCC3)C2)cc1 |  | fluorescence | 0.016 µM
CCCCS(=O)(=O)NCCC(C)(C)CN(C[C@@H](O)[C@H](Cc1ccccc1)NC(=O)O[C@H]1CO[C@H]2OCC[C@H]21)S(=O)(=O)c1ccc2c(c1)OCO2 |  | fluorescence | <0.001 µM
CCOC[C@@H]1CC(NC(=O)[C@H](OCc2ccccc2)[C@H](O)[C@@H](O)[C@@H](OCc2ccccc2)C(=O)N[C@@H]2CO[C@H](COCC)C2)CO1 |  | fluorescence | >5 µM
CC(C)(CCNC(=O)c1ccc(F)cc1)CN(C[C@@H](O)[C@H](Cc1ccccc1)NC(=O)O[C@H]1CO[C@H]2OCC[C@H]21)S(=O)(=O)c1ccc2c(c1)OCO2 |  | fluorescence | <0.001 µM
CC(C)[C@H](NC(=O)[C@H](Cc1ccccc1)C[C@H](O)[C@H](Cc1ccccc1)NC(=O)OC(C)(C)C)C(N)=O |  | HPLC | 0.0014 µM
COc1ccc(S(=O)(=O)N(CC(C)C)C[C@@H](O)[C@H](Cc2ccccc2)NC(=O)[C@@H]2CCC[C@@]3(CCCO3)C2)cc1 |  | fluorescence | 0.26 µM
C=CCOC[C@@H]1CC(NC(=O)[C@H](OCc2ccccc2)[C@H](O)[C@@H](O)[C@@H](OCc2ccccc2)C(=O)N[C@@H]2CO[C@H](COCC=C)C2)CO1 |  | fluorescence | >5 µM
CON(C)C(=O)OCCCC(C)(C)CN(C[C@@H](O)[C@H](Cc1ccccc1)NC(=O)O[C@H]1CO[C@H]2OCC[C@H]21)S(=O)(=O)c1ccc2c(c1)OCO2 |  | fluorescence | <0.001 µM
CC(=O)Nc1ccc(S(=O)(=O)N(C)C[C@@H](O)[C@H](Cc2ccccc2)NC(=O)OC(C)(C)C)cc1Cl |  | HPLC | >5 µM
CC(C)(CCCCCNC(=O)c1cccs1)CN(C[C@@H](O)[C@H](Cc1ccccc1)NC(=O)O[C@H]1CO[C@H]2OCC[C@H]21)S(=O)(=O)c1ccc2c(c1)OCO2 |  | fluorescence | <0.001 µM
COC(=O)N[C@H](C(=O)NN(CC[C@@]1(Cc2ccccc2)C(=O)N(C2c3ccccc3C[C@H]2O)C[C@@H]1O)Cc1ccc(-c2ccccn2)cc1)C(C)(C)C |  | fluorescence | 0.0063 µM
CC[C@H](C)[C@H](NC(=O)[C@@H]1CCCN1C[C@H](Cc1ccccc1)NC(=O)[C@H](CC(N)=O)NC(=O)[C@H](CCC(N)=O)NC(=O)[C@H](CO)NC(=O)[C@@H](N)C(C)C)C(=O)N[C@H](C(=O)O)C(C)C |  |  | 3.52 µM
CC(C)(CCNC(=O)O[C@@H]1CCOC1)CN(C[C@@H](O)[C@H](Cc1ccccc1)NC(=O)O[C@H]1CO[C@H]2OCC[C@H]21)S(=O)(=O)c1ccc2c(c1)OCO2 |  | fluorescence | <0.001 µM
CC(C)[C@H](NC(=O)[C@H](Cc1ccccc1)C[C@H](O)[C@H](Cc1ccccc1)NC(=O)OC(C)(C)C)C(=O)N=C(N)N |  | HPLC | 0.0031 µM
CCNC(=O)OCCC(C)(C)CN(C[C@@H](O)[C@H](Cc1ccccc1)NC(=O)O[C@H]1CO[C@H]2OCC[C@H]21)S(=O)(=O)c1ccc2c(c1)OCO2 |  | fluorescence | <0.001 µM
CC(=O)C[C@H](NC(=O)c1ccc2ccccc2n1)C(=O)N[C@@H](Cc1ccccc1)[C@@H](O)CN(CC(C)C)S(=O)(=O)c1ccc(NC(C)=O)cc1 |  | HPLC | 0.4 µM
CC(C)(C)OC(=O)N[C@@H](Cc1ccccc1)[C@H](O)C(=O)N[C@@H](CCC(=O)O)C(=O)N[C@@H](Cc1ccccc1)C(=O)O |  | HPLC | 3.3 µM
COc1ccc(S(=O)(=O)N(CC(C)C)C[C@@H](O)[C@H](Cc2ccccc2)NC(=O)[C@H]2CCO[C@@]3(CCCO3)C2)cc1 |  | fluorescence | 0.0076 µM
C=C(C)OC(=O)NCCC(C)(C)CN(C[C@@H](O)[C@H](Cc1ccccc1)NC(=O)O[C@H]1CO[C@H]2OCC[C@H]21)S(=O)(=O)c1ccc2c(c1)OCO2 |  | fluorescence | <0.001 µM
CCCC1(CCc2ccccc2)CC(=O)C(C(SCC)c2cccc(NS(=O)(=O)c3ccc(C(F)(F)F)cn3)c2)C(=O)C1 |  | substrate cleavage | 0.001 µM
CC(C)(CCCCCNC(=O)N1CCOCC1)CN(C[C@@H](O)[C@H](Cc1ccccc1)NC(=O)O[C@H]1CO[C@H]2OCC[C@H]21)S(=O)(=O)c1ccc2c(c1)OCO2 |  | fluorescence | <0.001 µM
C=CCOC[C@@H]1CC(NC(=O)[C@H](OCc2ccccc2)[C@H](O)[C@@H](O)[C@@H](OCc2ccccc2)C(=O)N[C@H]2c3ccccc3C[C@H]2O)CO1 |  | fluorescence | 0.0113 µM
CC(C)(CCCNC(=O)CN)CN(C[C@@H](O)[C@H](Cc1ccccc1)NC(=O)O[C@H]1CO[C@H]2OCC[C@H]21)S(=O)(=O)c1ccc2c(c1)OCO2 |  | fluorescence | <0.001 µM
C=CCN1C(=O)N(Cc2ccc(OC)cc2)[C@@H](CO)[C@H](O)[C@@H]1Cc1ccccc1 | IIIB |  | >12.5 µM
COC(=O)N[C@H](C(=O)NN(CC[C@@]1(Cc2ccccc2)C(=O)N(C2c3ccccc3C[C@H]2O)C[C@@H]1O)Cc1ccc(Br)cc1)C(C)(C)C |  | fluorescence | 0.0063 µM
CC[C@H](C)[C@H](NC(=O)[C@@H](C[C@H](O)[C@H](CC(C)C)NC(=O)[C@H](CC(N)=O)NC(=O)[C@H](CCC(N)=O)NC(=O)[C@H](CO)NC(=O)[C@@H](N)C(C)C)C(C)C)C(=O)N[C@H](C(=O)O)C(C)C |  |  | <0.001 µM
COC(=O)N[C@H](C(=O)NN(CC[C@@]1(Cc2ccccc2)C(=O)N(C2c3ccccc3C[C@H]2O)C[C@H]1O)Cc1ccc(Br)cc1)C(C)(C)C |  | fluorescence | 0.0063 µM
CC(C)(CCCCNC(=O)c1ccc2c(c1)OCO2)CN(C[C@@H](O)[C@H](Cc1ccccc1)NC(=O)O[C@H]1CO[C@H]2OCC[C@H]21)S(=O)(=O)c1ccc2c(c1)OCO2 |  | fluorescence | <0.001 µM
O=C(NC1CO[C@H](CO)C1)[C@H](OCc1ccccc1)[C@H](O)[C@@H](O)[C@@H](OCc1ccccc1)C(=O)N[C@H]1c2ccccc2C[C@H]1O |  | fluorescence | 0.00025 µM
CC(C)(CCN=C(N)NC#N)CN(C[C@@H](O)[C@H](Cc1ccccc1)NC(=O)O[C@H]1CO[C@H]2OCC[C@H]21)S(=O)(=O)c1ccc2c(c1)OCO2 |  | fluorescence | <0.001 µM
COC(=O)[C@@H](NC(=O)[C@@H](NC(=O)CC[C@H](O)[C@H](Cc1ccccc1)NC(=O)[C@H](C)NC(=O)[C@H](C)NC(=O)OCc1ccccc1)C(C)C)C(C)C |  | HPLC | 0.048 µM
CCCS(=O)(=O)NCCCC(C)(C)CN(C[C@@H](O)[C@H](Cc1ccccc1)NC(=O)O[C@H]1CO[C@H]2OCC[C@H]21)S(=O)(=O)c1ccc2c(c1)OCO2 |  | fluorescence | <0.001 µM
COC(=O)[C@@H](NC(=O)[C@@H](NC(=O)[C@H](C)CC(=O)[C@H](Cc1ccccc1)NC(=O)OC(C)(C)C)C(C)C)C(C)C |  | HPLC | >1 µM
COc1ccc(S(=O)(=O)N(C[C@@H](O)[C@H](Cc2ccccc2)NC(=O)O[C@H]2CCCO2)CC2(CCC#N)CCCCC2)cc1 |  | fluorescence | <0.001 µM
CC(C)[C@H](NC(=O)[C@H](Cc1ccccc1)C[C@H](O)[C@H](Cc1ccccc1)NC(=O)[C@H](C)NC(=O)OCc1ccccc1)C(N)=O |  | HPLC | 0.0006 µM
CC(C)(CCOC(=O)N1CCOCC1)CN(C[C@@H](O)[C@H](Cc1ccccc1)NC(=O)O[C@H]1CO[C@H]2OCC[C@H]21)S(=O)(=O)c1ccc2c(c1)OCO2 |  | fluorescence | <0.001 µM
COC(=O)N[C@H](C(=O)NN(CC[C@@]1(Cc2ccccc2)C(=O)N(C2c3ccccc3C[C@H]2O)C[C@H]1O)Cc1ccc(-c2cccnc2)cc1)C(C)(C)C |  | fluorescence | 0.0063 µM
COC(=O)N[C@H](C(=O)N[C@@H](Cc1ccccc1)[C@H](O)CN(CC(C)(C)CCCCNS(C)(=O)=O)S(=O)(=O)c1ccc2c(c1)OCO2)C(C)(C)C |  | fluorescence | <0.001 µM
CC(C)(C)c1cc2c(O)c(c1)Cc1cc(C(C)(C)C)cc3c1OCCOc1ccc4ccccc4c1C=NCCNCCN=Cc1c(ccc4ccccc14)OCCOc1c(cc(C(C)(C)C)cc1Cc1cc(C(C)(C)C)cc(c1O)C3)C2 |  | FRET / fluorescence | 22 µM
COC(=O)NCCCCC(C)(C)CN(C[C@@H](O)[C@H](Cc1ccccc1)NC(=O)O[C@@H]1CO[C@@H]2OCC[C@@H]21)S(=O)(=O)c1ccc(N)cc1 |  | fluorescence | <0.001 µM
COc1ccc(CN2C(=O)N[C@H](Cc3ccccc3)[C@H](O)[C@H]2CO)cc1 | IIIB |  | >12.5 µM
COCCOC(=O)NCCCCCC(C)(C)CN(C[C@@H](O)[C@H](Cc1ccccc1)NC(=O)O[C@H]1CO[C@H]2OCC[C@H]21)S(=O)(=O)c1ccc2c(c1)OCO2 |  | fluorescence | <0.001 µM
CCC(C)[C@H](NC(=O)[C@H](C(C)C)[C@@H](O)[C@H](O)C(=O)[C@H](CC(C)C)NC(=O)[C@H](Cc1cnc[nH]1)NC(=O)COc1ccccc1)C(=O)NCc1ccccn1 |  |  | 0.003 µM

The last 5 rows once more:

| compound | strain or isolate | method | value |
|---|---|---|---|
| CC(C)(C)c1cc2c(O)c(c1)Cc1cc(C(C)(C)C)cc3c1OCCOc1ccc4ccccc4c1C=NCCNCCN=Cc1c(ccc4ccccc14)OCCOc1c(cc(C(C)(C)C)cc1Cc1cc(C(C)(C)C)cc(c1O)C3)C2 |  | FRET / fluorescence | 22 µM |
| COC(=O)NCCCCC(C)(C)CN(C[C@@H](O)[C@H](Cc1ccccc1)NC(=O)O[C@@H]1CO[C@@H]2OCC[C@@H]21)S(=O)(=O)c1ccc(N)cc1 |  | fluorescence | <0.001 µM |
| COc1ccc(CN2C(=O)N[C@H](Cc3ccccc3)[C@H](O)[C@H]2CO)cc1 | IIIB |  | >12.5 µM |
| COCCOC(=O)NCCCCCC(C)(C)CN(C[C@@H](O)[C@H](Cc1ccccc1)NC(=O)O[C@H]1CO[C@H]2OCC[C@H]21)S(=O)(=O)c1ccc2c(c1)OCO2 |  | fluorescence | <0.001 µM |
| CCC(C)[C@H](NC(=O)[C@H](C(C)C)[C@@H](O)[C@H](O)C(=O)[C@H](CC(C)C)NC(=O)[C@H](Cc1cnc[nH]1)NC(=O)COc1ccccc1)C(=O)NCc1ccccn1 |  |  | 0.003 µM |

Blank or dashed fields: not listed here.